According to PMC12314560:

Molecular target: S1-antibody
Test: BLI
Conditions: domain or fragment

Recombinant protein of wild-type SARS-CoV-2 spike subunit 1 (from UniProt P0DTC2)
Kd: 0.603 nM
